{"source": "patent US20040249122A1", "about": "“Cationic, amphipathic beta-sheet peptides and uses thereof” (priority 2003, published 2004)", "assay": "DSC, bilayer-to-hexagonal phase transition temperature (TH) of DiPoPE", "type": "physicochemical", "note": "Where a SMILES comes first, the peptide text is derived from it."}
{"smiles": "CC[C@H](C)[C@H](NC(=O)[C@H](CCCCN)NC(=O)CNC(=O)[C@H](C)NC(=O)[C@@H](NC(=O)[C@H](CCCCN)NC(=O)[C@H](C)NC(=O)[C@@H](NC(=O)[C@H](CCCCN)NC(=O)CNC(=O)[C@H](C)NC(=O)[C@@H](NC(=O)[C@H](CCCCN)NC(=O)[C@H](C)NC(=O)[C@@H](NC(=O)[C@H](CCCCN)NC(=O)CNC(=O)[C@H](C)NC(=O)[C@@H](NC(=O)[C@@H](N)CCCCN)[C@@H](C)CC)[C@@H](C)CC)[C@@H](C)CC)[C@@H](C)CC)[C@@H](C)CC)C(=O)N[C@@H](C)C(N)=O", "note": "[(KIAGKIA)3-NH2, KIAGKIAKIAGKIAKIAGKIA -NH2, reference compound] (H-KIAGKIAKIAGKIAKIAGKIA-NH2; N-terminus assumed)", "values": [{"measurement": "effect on TH of DiPoPE (in words)", "setting": "DSC", "result": "negligible effect"}, {"measurement": "Linear Regression: slope of TH vs. mole fraction of peptide", "setting": "DiPoPE, Table 3", "result": "132 ± 65"}]}
